Test results as given in paper PMC4604408, “Targeting the Parasite's DNA with Methyltriazenyl Purine Analogs Is a Safe, Selective, and Efficacious Antitrypanosomal Strategy” (Antimicrobial Agents and Chemotherapy, 2015).

Legend:
Assay type in all cases: cell-based, Trypanosoma brucei
[1] = tested on: Tbb msh2-/-; assay: Alamar Blue assay on trypanosomes lacking both MSH2 alleles; conditions: read-out: Tbb msh2-/- (EC50; µM) AVG; average of at least 3 independent experiments
[2] = tested on: Tbb msh2+/-; assay: Alamar Blue assay on trypanosomes lacking one MSH2 allele; conditions: read-out: Tbb msh2+/- (EC50; µM) AVG; average of at least 3 independent experiments
[3] = tested on: Tbb msh2+/+; assay: Alamar Blue assay on MMR-proficient control trypanosomes; conditions: read-out: Tbb msh2+/+ (EC50; µM) AVG; average of at least 3 independent experiments

Work on `O=[As]c1ccccc1` (stereo not drawn) yielded an EC50 [1] of 0.00093 µM, an EC50 [2] of 0.0016 µM and an EC50 [3] of 0.00151 µM.
